# Zika virus NS2B-NS3: effect of single substitutions on growth in cell culture

Reference: Ni et al. 2025, doi:10.1038/s41467-025-63602-z.

Chain scanned (Zika virus MR766; NS2B from position 2 to 131, then the start of NS3):
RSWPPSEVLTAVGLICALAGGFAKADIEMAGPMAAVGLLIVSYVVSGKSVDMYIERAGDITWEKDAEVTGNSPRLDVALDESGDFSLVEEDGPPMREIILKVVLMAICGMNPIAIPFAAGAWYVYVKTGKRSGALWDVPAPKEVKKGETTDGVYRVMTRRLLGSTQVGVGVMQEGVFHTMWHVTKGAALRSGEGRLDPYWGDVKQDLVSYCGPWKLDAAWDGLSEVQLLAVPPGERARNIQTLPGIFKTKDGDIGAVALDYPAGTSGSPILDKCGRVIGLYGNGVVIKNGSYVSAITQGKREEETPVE

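Libraries of single mutants were passaged as virus pools on Huh-7.5 cells. Deep sequencing gave the change in frequency of each mutant relative to wild type, averaged over three replicate libraries (two for positions 207-308). The study looked for pockets that tolerate few changes, as a guide for inhibitor design.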

Scale: log2 effect, wild type = 0; the lower, the more harmful to the virus.
Each entry names the wild-type residue, its position and the residue put in its place.

W3K gave -6.53.
P4I gave -5.07.
C16A gave -3.10.
C16I gave -6.45.
G20R gave -5.15.
A30N gave -1.73.
L39K gave -4.66.
S42M gave -6.17.
K48D gave -4.89.
K48W gave -6.18.
D59C gave -2.58.
T61K gave -1.86.
E67H gave -5.32.
E67Q gave -2.29.
S72R gave -7.24.
L87Y gave -6.34.
V103N gave -4.83.
W122C gave -5.53.
K127S gave -3.78.
P141R gave -6.33.
K142* gave -6.04.
E148L gave -1.41.
G152A gave -6.38.
T158G gave 2.93.
L161* gave -6.76.
V167S gave -2.76.
F177H gave -4.43.
G186D gave -5.07.
R190* gave -7.40.
R190D gave -3.71.
G192Q gave -3.53.
G201D gave -5.49.
D202K gave -5.53.
G212K gave -7.20.
G212R gave -8.13.
L223T gave -0.36.
L229T gave -2.83.
A230C gave -1.72.
A256N gave -5.70.
P262Y gave -4.55.
G267Y gave -5.41.
L280F gave -5.77.
I287T gave 0.89.
V293L gave -6.63.
G299L gave -6.36.

Extract of 4 entries:

mutation,log2 growth effect
G20R,-5.15
T61K,-1.86
G212K,-7.20
V293L,-6.63

Six mutants with high scores were retested singly and none clearly outgrew wild type, so positive values are not proof of better growth.
The region was split into three libraries (1-103, 104-206, 207-308).
Stop codons (*) centre on -7 and mark the level of dead virus.
Position 1 still belongs to NS2A. In the paper, -1 or higher counts as tolerated.